From patent US20200408687

The chains behind the UniProt entries cited, without tags or fusion partners.
UniProt P19821, whole entry: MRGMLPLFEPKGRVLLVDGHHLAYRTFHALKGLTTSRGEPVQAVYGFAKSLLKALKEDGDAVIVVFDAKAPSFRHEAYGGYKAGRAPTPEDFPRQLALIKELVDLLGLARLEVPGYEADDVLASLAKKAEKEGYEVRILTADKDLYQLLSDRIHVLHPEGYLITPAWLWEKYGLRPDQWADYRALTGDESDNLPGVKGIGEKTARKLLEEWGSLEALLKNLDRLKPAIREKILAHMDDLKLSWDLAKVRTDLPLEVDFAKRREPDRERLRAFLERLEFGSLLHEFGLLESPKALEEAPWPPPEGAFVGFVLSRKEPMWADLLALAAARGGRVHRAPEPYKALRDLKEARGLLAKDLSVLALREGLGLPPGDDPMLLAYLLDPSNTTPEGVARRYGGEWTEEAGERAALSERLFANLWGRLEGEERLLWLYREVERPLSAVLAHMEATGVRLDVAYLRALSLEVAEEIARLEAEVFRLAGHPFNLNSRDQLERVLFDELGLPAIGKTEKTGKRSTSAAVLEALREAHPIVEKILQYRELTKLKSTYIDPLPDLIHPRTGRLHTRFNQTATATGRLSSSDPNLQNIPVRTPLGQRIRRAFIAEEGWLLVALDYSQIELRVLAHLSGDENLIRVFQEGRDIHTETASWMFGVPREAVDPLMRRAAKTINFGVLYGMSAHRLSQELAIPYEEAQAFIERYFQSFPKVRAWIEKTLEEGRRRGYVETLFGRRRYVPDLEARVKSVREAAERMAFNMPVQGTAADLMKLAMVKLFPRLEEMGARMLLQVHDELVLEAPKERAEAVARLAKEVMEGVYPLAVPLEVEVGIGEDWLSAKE

Target: Taq DNA polymerase (UniProt P19821)
Experiment: inhibition of the protein
Conditions: negligible signal with off-target bacterial samples (10^6 CFU of other species); purified recombinant protein; single-stranded DNA; dose not given here

Q: For “CAATGTACAGTATTGTGGAGGAAGGGAGTAAAGTTAAT [Escherichia detection key without its target]”, which “functional effect of the aptamer” value is on record?
A: not active

No signal at the amounts used counts as a negative.
